Compound potency records, mixed from different reports. Data source: NIAID ChemDB in PubChem.

Conditions beyond the fields shown may differ between rows. ICn: concentration for n% inhibition. Blank or dashed fields: not listed here. MIC bound: limit read from a one-dose screen. Percent inhibition refers to the dose given; in toxicity tests it is the harm to the cells.

structure,read-out,strain,dose,target,test,species,cell line,method,value
OCCOCCN1CCN(CCCN2c3ccccc3Sc3ccc(C(F)(F)F)cc32)CC1,MIC,H37Rv,-,-,culture,Mycobacterium tuberculosis,-,BACTEC,>12.5 µg/mL
O=C(Nc1nnc(NCCc2ccccc2)s1)c1c(Cl)cccc1Cl,IC50,-,-,Polymerase,target,Human cytomegalovirus,-,-,>25 µM
CCOc1ccc(NC(=O)c2cc3ccccc3cc2O)cc1-c1ccccc1,MIC,H37Rv,-,-,culture,Mycobacterium tuberculosis,-,-,>100 µg/mL
CCCCCCCCCCC/C=N/Nc1ccc([N+](=O)[O-])cn1,MIC bound,H37Rv,-,-,culture,Mycobacterium tuberculosis,-,BACTEC,>12.5 µg/mL
CCN(CC)CCSCCN(CC)CC.Cl,MIC,H37Rv,-,-,culture,Mycobacterium tuberculosis,-,-,>100 µg/mL
OCc1ccc(-c2cncc(N3CCN(c4ccccc4)CC3)n2)cc1,inhibition,-,1 µM,UL97 kinase,target,Cytomegalovirus,-,-,<50%
CCOc1ccc(NC(=O)c2cc3ccccc3cc2O)cc1,MIC,H37Rv,-,-,culture,Mycobacterium tuberculosis,-,-,>100 µg/mL
O=C(Nc1ccc(S(=O)(=O)Nc2nccs2)cc1)c1cccnc1Nc1cccc(Cl)c1,inhibition,H37Rv,12.5 µg/mL,-,culture,Mycobacterium tuberculosis,-,BACTEC,81%
CC(=O)Nc1cccc(N(C)C)c1,MIC,H37Rv,-,-,culture,Mycobacterium tuberculosis,-,-,>100 µg/mL
CC(=O)c1ccc(-c2cncc(N3CCN(c4ccc(C)cc4C)CC3)n2)s1,inhibition,-,10 µM,UL97 kinase,target,Cytomegalovirus,-,-,>15%
O=C(Nc1nnc(NC2CCN(Cc3ccccc3)CC2)s1)c1ccc([N+](=O)[O-])o1,IC50,-,-,Polymerase,target,Human cytomegalovirus,-,-,>25 µM
NNc1ccc2cccc(O)c2n1,MIC,H37Rv,-,-,culture,Mycobacterium tuberculosis,VERO,-,1.6 µg/mL
Cc1cccc(N2CCN(c3cncc(-c4cc5ccccc5s4)n3)CC2)c1C,IC50,-,-,UL97 kinase,target,Cytomegalovirus,-,-,<100 µM
C#CC[C@@H](C(=O)N[C@H](/C=C/C(=O)OCC)C[C@@H]1CCNC1=O)n1cccc(NC(=O)c2cc(C)on2)c1=O,inhibition,Serotype 89,0.035 µM,-,culture,Rhinovirus,H1-HELA,cytopathic effect / XTT,90%
Fc1ccc(N2CCCCC2)c(NC(=S)c2ccncc2)c1,inhibition,-,10 µM,Lyn,host protein,-,-,kinase activity,-1%
COc1cccc(NC(=S)Nc2ccccc2)c1,MIC,H37Rv,-,-,culture,Mycobacterium tuberculosis,-,-,>100 µg/mL
CC(=O)C1=C(O)C(Nc2ccccc2)=CC(=O)C1=Nc1ccccc1,inhibition,H37Rv,128 µg/mL,-,culture,Mycobacterium tuberculosis,-,BACTEC,99%
O=C(c1ccc(O)c(O)c1)c1ccc(O)c(O)c1,MIC,H37Rv,-,-,culture,Mycobacterium tuberculosis,-,-,>100 µg/mL
COc1c2c(c(OC)c3oc(=O)ccc13)OCC2,MIC bound,H37Rv,-,-,culture,Mycobacterium tuberculosis,-,BACTEC,>12.5 µg/mL
Fc1ccc(N2CCN(c3cncc(-c4ccc(-c5ccccc5)c(F)c4)n3)CC2)cc1,inhibition,-,10 µM,UL97 kinase,target,Cytomegalovirus,-,-,>15%
c1ccc(CCCc2ccccn2)cc1,MIC,H37Rv,-,-,culture,Mycobacterium tuberculosis,-,-,>100 µg/mL
COC(=O)C(Cc1ccccc1)NC(=O)N1CCCN(C(=O)NC(Cc2ccccc2)C(=O)OC)CCCN(C(=O)NC(Cc2ccccc2)C(=O)OC)CCC1,inhibition,H37Rv,6.25 µg/mL,-,culture,Mycobacterium tuberculosis,-,resazurin,-9%
O=C1c2ccccc2C(=O)c2cc(S(=O)(=O)O)ccc21,MIC,H37Rv,-,-,culture,Mycobacterium tuberculosis,-,-,>100 µg/mL
COc1ccc(Cl)cc1-c1cncc(N2CCN(c3ccncc3)CC2)n1,inhibition,-,10 µM,UL97 kinase,target,Cytomegalovirus,-,-,>15%
Cn1c(=O)c(C(=O)[O-])c2c3c(cccc31)C(=O)c1ccccc1-2.[Na+],MIC,H37Rv,-,-,culture,Mycobacterium tuberculosis,-,-,>100 µg/mL
CCOc1ccc2ccccc2c1C(=O)Nc1nnc(NC2CCCCCC2)s1,IC50,-,-,Polymerase,target,Human cytomegalovirus,-,-,<25 µM
Cc1ccc2c(c1)NCCC2,MIC,H37Rv,-,-,culture,Mycobacterium tuberculosis,-,-,>100 µg/mL
O=[N+]([O-])c1ccc(CO)c(I)c1,inhibition,H37Rv,12.5 µg/mL,-,culture,Mycobacterium tuberculosis,-,BACTEC,0%
O=NN1CCCCC1,MIC,H37Rv,-,-,culture,Mycobacterium tuberculosis,-,-,>100 µg/mL
O=C(/C=C/c1ccccc1Cl)Nc1nnc(NCc2ccc3c(c2)OCO3)s1,IC50,-,-,Polymerase,target,Human cytomegalovirus,-,-,<25 µM
COC1OC2COC(c3ccccc3)OC2C2OC(=S)OC12,MIC bound,H37Rv,-,-,culture,Mycobacterium tuberculosis,-,BACTEC,>12.5 µg/mL
CCOC(=O)N1CCC(Nc2nnc(NC(=O)c3c(OCC)ccc4ccccc34)s2)CC1,IC50,-,-,Polymerase,target,Human cytomegalovirus,-,-,<25 µM
CC(C)(C)OC(=O)N1N=NC2C1C1CC(OCc3ccccc3)(OCc3ccccc3)C2O1,MIC bound,H37Rv,-,-,culture,Mycobacterium tuberculosis,-,BACTEC,>12.5 µg/mL
CCN(CC)c1ccnc(NCCCCCN2CCCCC2)n1.Cl,MIC,H37Rv,-,-,culture,Mycobacterium tuberculosis,-,-,>100 µg/mL
CC(C)(C)c1ncc(CCCN=C(N)N)[nH]c1=O,MIC,PZA-R,-,-,culture,Mycobacterium tuberculosis,-,-,1.6 µg/mL
CC(C)(C)OC(=O)CCNc1nnc(NC(=O)c2ccc(C(F)(F)F)cc2)s1,IC50,-,-,Polymerase,target,Human cytomegalovirus,-,-,>25 µM
O=C(NNS(=O)(=O)c1ccccc1)c1ccc([N+](=O)[O-])cc1,MIC bound,H37Rv,-,-,culture,Mycobacterium tuberculosis,-,BACTEC,>12.5 µg/mL
CC(=O)Nc1ccc(N(S(C)(=O)=O)S(C)(=O)=O)cc1,MIC,H37Rv,-,-,culture,Mycobacterium tuberculosis,-,-,>100 µg/mL
O=c1[nH]c2ccc(Cl)cc2c(=O)o1,inhibition,H37Rv,6.25 µg/mL,-,culture,Mycobacterium tuberculosis,-,resazurin,8%
Nc1cc2ccc(S(=O)(=O)O)cc2cc1S(=O)(=O)O,MIC,H37Rv,-,-,culture,Mycobacterium tuberculosis,-,-,50 µg/mL
NC(=S)NN=C1CSSC1,MIC bound,H37Rv,-,-,culture,Mycobacterium tuberculosis,-,BACTEC,≤12.5 µg/mL
c1ccc2c(-c3cncc(N4CCN(c5ccncc5)CC4)n3)cccc2c1,IC50,-,-,UL97 kinase,target,Cytomegalovirus,-,-,<10 µM

Repeating the first 3 entries:

structure,read-out,strain,dose,target,test,species,cell line,method,value
OCCOCCN1CCN(CCCN2c3ccccc3Sc3ccc(C(F)(F)F)cc32)CC1,MIC,H37Rv,-,-,culture,Mycobacterium tuberculosis,-,BACTEC,>12.5 µg/mL
O=C(Nc1nnc(NCCc2ccccc2)s1)c1c(Cl)cccc1Cl,IC50,-,-,Polymerase,target,Human cytomegalovirus,-,-,>25 µM
CCOc1ccc(NC(=O)c2cc3ccccc3cc2O)cc1-c1ccccc1,MIC,H37Rv,-,-,culture,Mycobacterium tuberculosis,-,-,>100 µg/mL